Source: US10456414B2, “Methods for treating HCV” (priority 2011, dated 2019)

system: HCV genotype 1a replicon; assay: Antiviral combination studies with Compound 4, MacSynergy II; conditions: in combination with Compound 4

Row | Structure (SMILES) | Interaction
1 | NC(=O)c1ncn([C@@H]2O[C@H](CO)[C@@H](O)[C@H]2O)n1 [Ribavirin, 1-β-D-ribofuranosyl-1H-1,2,4-Triazole-3-carboxamide, reference compound] | Minor antagonism (Minor antagonism: ≤−25 and >−50 nM^2%)
2 | CC1=CC[C@H](C(=O)N(c2cc(C#CC(C)(C)C)sc2C(=O)O)[C@H]2CC[C@](O)(CO[C@H]3CCOC3)CC2)CC1 [Compound 5, 5-(3,3-dimethylbut-1-yn-1-yl)-3-[(cis-4-hydroxy-4-{[(3S)-tetrahydrofuran-3-yloxy]methyl}cyclohexyl){[(1R)-4-methylcyclohex-3-en-1-yl]carbonyl}amino]thiophene-2-carboxylic acid] | Minor synergy (Minor synergy: >25 and ≤50 nM^2%)
3 | Fc1ccccc1-c1nc2ccn(Cc3ccc(-c4ccc(C(F)(F)F)cc4C(F)(F)F)nn3)cc-2n1 [Compound 1, 5-((6-(2,4-bis(trifluoromethyl)phenyl)pyridazin-3-yl)methyl)-2-(2-fluorophenyl)-5H-imidazo[4,5-c]pyridine] | Minor synergy (Minor synergy: >25 and ≤50 nM^2%)
4 | CC[C@@H]1C[C@]1(NC(=O)[C@@H]1C[C@@H](Oc2cc(-c3csc(NC(C)C)n3)nc3c(Cl)c(OCCN4CCOCC4)ccc23)CN1C(=O)[C@@H](NC(=O)O[C@@H]1C[C@@H]2C[C@@H]2C1)C(C)(C)C)C(=O)O [Compound 3] | Minor synergy (Minor synergy: >25 and ≤50 nM^2%)
